Reference: ChEMBL document CHEMBL1287766, “Discovery of N-benzyl-N'-(4-pipyridinyl)urea CCR5 antagonists as anti-HIV-1 agents (II): modification of the acyl portion” (Bioorg Med Chem Lett, 2010)
pIC50: −log10 of the molar value. This is a selection: effects in other tests are not listed, and their absence says nothing.

Tests used:
[1] = test system: Human immunodeficiency virus 1; assay: Antiviral activity against HIV1 BaL in human HOS cells; type: functional, organism-based; details: strain BaL
[2] = test system: Human immunodeficiency virus 1; assay: Antiviral activity against HIV1 BaL in human PBL cells; type: functional, organism-based; details: strain BaL

Question: How did the pIC50 [1] turn out when `N#Cc1ccc(CNC(=O)N(c2cccc(F)c2)C2CCN(CCC3(c4cccc(F)c4)CCN(C(=O)c4ccc(F)cc4O)CC3)CC2)cc1` was run?
Answer: The pIC50 was 8.18.

Question: What about the pIC50 [2] of the same molecule?
Answer: Its pIC50 is 7.49.

Question: `CC(C)(O)C(=O)N1CCC(CCN2CCC(N(C(=O)NCc3ccc(C#N)cc3)c3cccc(F)c3)CC2)(c2cccc(F)c2)CC1` was tested. Which pIC50 [1] did it give?
Answer: Its pIC50 is 8.10.

Question: And the pIC50 [2]?
Answer: Its pIC50 is 8.09.

Question: How did the pIC50 [1] turn out when `N#Cc1ccc(CNC(=O)N(c2cccc(F)c2)C2CCN(CCC3(c4cccc(F)c4)CCN(C(=O)c4cccc(C(N)=O)c4)CC3)CC2)cc1` was run?
Answer: Its pIC50 is 8.43.

Question: `N#Cc1ccc(CNC(=O)N(c2cccc(F)c2)C2CCN(CCC3(c4cccc(F)c4)CCN(C(=O)c4c(Cl)cccc4Cl)CC3)CC2)cc1` was tested. Which pIC50 [1] did it give?
Answer: Its pIC50 is 8.59.

Question: How did the pIC50 [1] turn out when `N#Cc1ccc(CNC(=O)N(c2cccc(F)c2)C2CCN(CCC3(c4cccc(F)c4)CCN(C(=O)c4ccc(C#N)cc4)CC3)CC2)cc1` was run?
Answer: Its pIC50 is 7.89.

Question: And the pIC50 [2]?
Answer: Its pIC50 is 7.59.

Question: With `N#Cc1ccc(CNC(=O)N(c2cccc(F)c2)C2CCN(CCC3(c4cccc(F)c4)CCN(C(=O)c4c(F)cccc4F)CC3)CC2)cc1` as the molecule, how does the pIC50 [1] read?
Answer: The pIC50 was 8.72.

Question: What about the pIC50 [2] of the same molecule?
Answer: The pIC50 was 8.19.
